{"source": "paper PMC11470151", "about": "“Advanced glycation end-product crosslinking activates a type VI secretion system phospholipase effector protein” (Nature Communications, 2024)", "key": {"[1]": {"molecular_target": "T1, His6-Tle (modified, full-length) (Enterobacter cloacae, UniProt A0A0M7ENE2)", "T1 construct": "gene NCTC10005_04014; full-length, N-terminal His6", "assay": "fluorogenic phospholipase A2 assay", "assay_type": "biochemical", "settings": "DOPC/DOPG liposomes, 50 mM Tris-HCl pH 7.5, 100 mM NaCl, 1 mM CaCl2; 600 nM enzyme, 1.5 µM substrate"}, "[2]": {"molecular_target": "T2, His6-lipase domain of Tle (MODIC-modified) (Enterobacter cloacae, UniProt A0A0M7ENE2)", "T2 construct": "gene NCTC10005_04014; C-terminal lipase domain Thr172-Ala472, N-terminal His6", "assay": "fluorogenic phospholipase A2 assay", "assay_type": "biochemical", "settings": "DOPC/DOPG liposomes, 50 mM Tris-HCl pH 7.5, 100 mM NaCl, 1 mM CaCl2; 600 nM enzyme, 1.5 µM substrate"}, "[3]": {"molecular_target": "T3, His6-lipase•∆ss-Tli complex (Enterobacter cloacae, UniProt A0A0M7ENE2)", "T3 construct": "gene NCTC10005_04014; made in E. coli; 7UBZ is the chymotrypsin-treated complex (His340-Leu445 removed); with T6SS lipase immunity protein Tli (ankyrin repeat domain-containing protein)", "assay": "SDS-PAGE crosslinking in vitro", "assay_type": "biochemical", "settings": "covalent; 37 °C, 20 mM sodium phosphate pH 7.0; thermolabile crosslink"}, "[4]": {"molecular_target": "T3, His6-lipase•∆ss-Tli complex", "assay": "crystal structure of MODIC crosslink; SDS-PAGE crosslinking in vitro", "assay_type": "binding", "settings": "covalent; Arg180-Lys461 imidazolium crosslink (MODIC) in lipase chain; needs bound Tli; structure formed with endogenous methylglyoxal in E. coli"}}}
{"smiles": "CCCCCCCCCCCCCCCC(=O)OC[C@H](COP(=O)(O)OCCNC(=O)CCCCCNc1ccc([N+](=O)[O-])cc1[N+](=O)[O-])OC(=O)CCCCC1=[N+]2C(=Cc3c(C)cc(C)n3[B-]2(F)F)C=C1", "note": "[PED6]", "values": [{"measurement": "fluorogenic phospholipase A2 assay", "setting": "[1]", "value": "modified form of full-length His6-Tle also exhibits phospholipase A1 and A2 activities"}, {"measurement": "fluorogenic phospholipase A2 assay", "setting": "[2]", "value": "modified lipase catalyzes phospholipase A1 and A2 reactions"}]}
{"smiles": "O=CC=O", "note": "[glyoxal]", "values": [{"measurement": "SDS-PAGE crosslinking in vitro", "setting": "[3]", "value": "The lipase can also be crosslinked with glyoxal at lower efficiency"}]}
{"smiles": "CC(=O)C=O", "note": "[methylglyoxal]", "values": [{"measurement": "crystal structure of MODIC crosslink; SDS-PAGE crosslinking in vitro", "setting": "[4]", "value": "MODIC fits well into the electron density bridging Arg180 and Lys461"}]}
